{"source": "PubChem BioAssay AID624099 (ICCB-Longwood, 2012)", "purpose": "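Host factors E2 relies on to silence an HPV18 LCR reporter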 (primary screen)", "cell system": "human C33A cervical carcinoma cells (HPV-negative) stably expressing BPV1 E2 and an HPV18 LCR luciferase reporter", "knock-down reagent": "siRNA pool against human genes, 40 nM", "timing": "72 h", "detection": "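Per-well luciferase luminescence, z-scored on each plate against the plate mean and SD with control wells left out, then averaged across three replicate plates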", "scale": "mean z-score and z-score: higher = stronger reporter signal, weaker E2 silencing", "call rule": "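Mean z ≥ 2 together with z ≥ 2 in two or more of the three replicates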", "note": "The deposit covers about 21,000 reagents; this is a part drawn at random. 497 of them (2.4%) count as active. 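Higher z means weaker E2 silencing; only reporter increases were scored, and knock-downs that hurt cell survival may mask genuine repressor factors.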"}
{"gene":"ELMO1 (GeneID 9844)","mean z-score":-0.97,"z-score, replicate A":-0.48,"z-score, replicate B":-1.33,"z-score, replicate C":-1.11,"outcome":"inactive"}
{"gene":"IL33R (GeneID 9173)","mean z-score":0.5,"z-score, replicate A":0.34,"z-score, replicate B":0.6,"z-score, replicate C":0.55,"outcome":"inactive"}
{"gene":"PAN2 (GeneID 9924)","mean z-score":0.02,"z-score, replicate A":0.11,"z-score, replicate B":0.18,"z-score, replicate C":-0.24,"outcome":"inactive"}
{"gene":"PSG4 (GeneID 5672)","mean z-score":0.55,"z-score, replicate A":0.57,"z-score, replicate B":0.37,"z-score, replicate C":0.72,"outcome":"inactive"}
{"gene":"RRM2B (GeneID 50484)","mean z-score":-0.06,"z-score, replicate A":0.15,"z-score, replicate B":0.07,"z-score, replicate C":-0.39,"outcome":"inactive"}
{"gene":"NSG1 (GeneID 27065)","mean z-score":-0.44,"z-score, replicate A":-0.91,"z-score, replicate B":-0.65,"z-score, replicate C":0.25,"outcome":"inactive"}
{"gene":"PTDSS1 (GeneID 9791)","mean z-score":-0.13,"z-score, replicate A":0.01,"z-score, replicate B":0,"z-score, replicate C":-0.42,"outcome":"inactive"}
{"gene":"MFAP3L (GeneID 9848)","mean z-score":-0.41,"z-score, replicate A":-0.49,"z-score, replicate B":-0.36,"z-score, replicate C":-0.37,"outcome":"inactive"}
{"gene":"ANXA9 (GeneID 8416)","mean z-score":-1.18,"z-score, replicate A":-0.92,"z-score, replicate B":-1.35,"z-score, replicate C":-1.28,"outcome":"inactive"}

2 neighbouring entries already listed, quoted:
{"gene":"PTDSS1 (GeneID 9791)","mean z-score":-0.13,"z-score, replicate A":0.01,"z-score, replicate B":0,"z-score, replicate C":-0.42,"outcome":"inactive"}
{"gene":"MFAP3L (GeneID 9848)","mean z-score":-0.41,"z-score, replicate A":-0.49,"z-score, replicate B":-0.36,"z-score, replicate C":-0.37,"outcome":"inactive"}

Further results follow:
{"gene":"COX5A (GeneID 9377)","mean z-score":0.73,"z-score, replicate A":0.96,"z-score, replicate B":0.63,"z-score, replicate C":0.61,"outcome":"inactive"}
{"gene":"ITGB6 (GeneID 3694)","mean z-score":0.86,"z-score, replicate A":0.94,"z-score, replicate B":0.81,"z-score, replicate C":0.83,"outcome":"inactive"}
{"gene":"RBM19 (GeneID 9904)","mean z-score":-0.9,"z-score, replicate A":-0.92,"z-score, replicate B":-1,"z-score, replicate C":-0.79,"outcome":"inactive"}
{"gene":"PORCN (GeneID 64840)","mean z-score":-0.54,"z-score, replicate A":-0.42,"z-score, replicate B":-0.41,"z-score, replicate C":-0.78,"outcome":"inactive"}
{"gene":"DDIT4L (GeneID 115265)","mean z-score":2.38,"z-score, replicate A":2.62,"z-score, replicate B":2.44,"z-score, replicate C":2.09,"outcome":"active"}
{"gene":"FAM237A (GeneID 200726)","mean z-score":-0.69,"z-score, replicate A":-0.56,"z-score, replicate B":-0.89,"z-score, replicate C":-0.61,"outcome":"inactive"}
{"gene":"PCDHA9 (GeneID 9752)","mean z-score":-0.21,"z-score, replicate A":-0.34,"z-score, replicate B":-0.02,"z-score, replicate C":-0.26,"outcome":"inactive"}
{"gene":"MUSTN1 (GeneID 389125)","mean z-score":0.08,"z-score, replicate A":-0.04,"z-score, replicate B":0.12,"z-score, replicate C":0.17,"outcome":"inactive"}
{"gene":"TMEM45B (GeneID 120224)","mean z-score":-0.32,"z-score, replicate A":-0.25,"z-score, replicate B":-0.5,"z-score, replicate C":-0.23,"outcome":"inactive"}
{"gene":"AP5Z1 (GeneID 9907)","mean z-score":-0.5,"z-score, replicate A":-0.42,"z-score, replicate B":-0.43,"z-score, replicate C":-0.65,"outcome":"inactive"}
{"gene":"EID2B (GeneID 126272)","mean z-score":-0.03,"z-score, replicate A":-0.25,"z-score, replicate B":-0.15,"z-score, replicate C":0.3,"outcome":"inactive"}
{"gene":"STIM2 (GeneID 57620)","mean z-score":1.02,"z-score, replicate A":1.3,"z-score, replicate B":0.6,"z-score, replicate C":1.16,"outcome":"inactive"}
{"gene":"FBXO15 (GeneID 201456)","mean z-score":1.27,"z-score, replicate A":1.19,"z-score, replicate B":1.03,"z-score, replicate C":1.6,"outcome":"inactive"}
{"gene":"ZNF385D (GeneID 79750)","mean z-score":-0.21,"z-score, replicate A":0.21,"z-score, replicate B":-0.82,"z-score, replicate C":-0.01,"outcome":"inactive"}
{"gene":"LOC284134 (retired record) (GeneID 284134)","mean z-score":-0.46,"z-score, replicate A":-0.68,"z-score, replicate B":-0.39,"z-score, replicate C":-0.3,"outcome":"inactive"}
{"gene":"UQCC1 (GeneID 55245)","mean z-score":0.12,"z-score, replicate A":0,"z-score, replicate B":0.01,"z-score, replicate C":0.35,"outcome":"inactive"}
{"gene":"IRF5 (GeneID 3663)","mean z-score":-0.87,"z-score, replicate A":-0.87,"z-score, replicate B":-0.79,"z-score, replicate C":-0.94,"outcome":"inactive"}
{"gene":"GNAI3 (GeneID 2773)","mean z-score":0.77,"z-score, replicate A":0.78,"z-score, replicate B":0.69,"z-score, replicate C":0.84,"outcome":"inactive"}
